Reference: ChEMBL document CHEMBL1140148, “Structure-activity studies on a series of a 2-aminopyrimidine-containing histamine H4 receptor ligands” (J Med Chem, 2008)

Amino acid sequences for entries named in this document (tags omitted). A change or cut given only in a name is not applied to a line headed by its entry.
UniProt Q9H3N8: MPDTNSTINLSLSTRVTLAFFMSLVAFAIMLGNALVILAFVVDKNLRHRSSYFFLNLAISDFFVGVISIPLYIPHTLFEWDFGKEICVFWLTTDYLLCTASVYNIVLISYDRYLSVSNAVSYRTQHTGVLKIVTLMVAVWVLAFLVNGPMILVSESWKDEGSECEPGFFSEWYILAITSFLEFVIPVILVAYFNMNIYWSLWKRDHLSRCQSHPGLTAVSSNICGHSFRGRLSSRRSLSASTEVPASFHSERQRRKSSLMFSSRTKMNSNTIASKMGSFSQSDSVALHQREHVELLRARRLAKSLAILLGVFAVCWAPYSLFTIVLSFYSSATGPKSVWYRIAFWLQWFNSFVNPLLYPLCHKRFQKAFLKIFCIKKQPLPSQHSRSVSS

Target: Histamine H4 receptor (Homo sapiens, UniProt Q9H3N8)
Conditions: HEK293

pKb: 8.53
SMILES: CN1CCN(c2cc(-c3ccc(C#N)cc3)nc(N)n2)CC1
